Results of unrelated studies side by side (data: NIAID ChemDB).

Common to all: host cell toxicity; cell line: CEM; endpoint: CC50

Blank or dashed fields: not listed here.

compound,read by,value
CCCCCCCCCCCCCC(=O)OC[C@@H](COP(=O)(O)OC[C@@H]1CC[C@H](n2cc(C)c(=O)[nH]c2=O)O1)OC(=O)CCCCCCCCCCCCC,trypan blue,820 µM
Cc1cn([C@@H]2O[C@H](CO[Si](C)(C)C(C)(C)C)[C@@H](O)[C@H]2O[Si](C)(C)C(C)(C)C)c(=O)n(CCO)c1=O,-,75 µM
O=C(O)c1ccc2ccc(/C=C/c3ccc(O)c(O)c3)nc2c1O,MTT,>100 µM
Cc1cn([C@H]2C[C@@H]3NC(NC#N)=NC[C@H]3O2)c(=O)[nH]c1=O,MTT,>100 µg/mL
COc1cc(NC(=O)C23CC4CC(CC(C4)C2)C3)c(C(=O)NN)cc1OC,-,40.5 µM
O=C(Nc1ccccc1C(=O)N[C@@H](Cc1ccccc1)C[C@H](O)[C@H](Cc1ccccc1)NC(=O)c1ccno1)OCc1ccccn1,-,>2 µM
O=C(O)P(=O)(O)O,-,800 µM
Cc1c(O)cccc1C(=O)N[C@@H](Cc1ccccc1)C[C@H](O)[C@H](Cc1ccccc1)NC(=O)c1ccccc1NC(=O)OCc1ccccn1,-,>1 µM
O=c1ccn([C@@H]2O[C@H](CO)C[C@@H]2F)c(=O)[nH]1,-,57 µg/mL
Nc1ncnc2c1ncn2[C@@H]1C[C@H](O)[C@@H](O)[C@H]1O,-,500 µg/mL
CO[C@@H]1N([C@H]2C[C@H](F)[C@@H](CO)O2)C(=O)NC(=O)[C@@]1(C)I,-,12.2 µM
Cc1ccc(/C=N/NC(=O)c2cc(Cl)ccc2NC(=O)C23CC4CC(CC(C4)C2)C3)o1,-,>200 µM
Cc1cn([C@H]2C[C@H](N=C(NC#N)Oc3ccccc3)[C@@H](CO)O2)c(=O)[nH]c1=O,MTT,>100 µg/mL
Cc1cn([C@H]2C[C@H](N=[N+]=[N-])[C@@H](CO)O2)c(=O)[nH]c1=O,XTT,>100 µM
CO[C@H]1N([C@H]2C[C@H](F)[C@@H](CO)O2)C(=O)NC(=O)[C@]1(C)Br,-,1.72 µM
Cc1cn([C@H]2C[C@H](N=[N+]=[N-])[C@@H](COC(=O)CNC(=O)c3cnccn3)O2)c(=O)[nH]c1=O,XTT,828 µM
CO[C@H]1N([C@H]2C[C@H](F)[C@@H](CO)O2)C(=O)NC(=O)[C@]1(C)I,-,57.3 µM
Cc1cn([C@H]2C[C@H](N=[N+]=[N-])[C@@H](CO)O2)c(=O)[nH]c1=O,-,>20 µg/mL
CC(C)(C)OC(=O)Nc1cccc(B(O)O)c1,MTT,>250 µM
COC(=O)[C@H](C)NP(=O)(OC[C@@H]1CC[C@H](n2cnc3c(N)ncnc32)O1)Oc1ccccc1,-,2.6 µM
CCc1c(Cc2cc(C)cc(C)c2)n(COCc2ccc(OP(=O)(OCCSC(=O)C(C)(C)C)OC[C@@H]3C=C[C@H](n4cc(C)c(=O)[nH]c4=O)O3)cc2)c(=O)[nH]c1=O,-,32 µM
O=C(O)c1cn2c3c(c(N4CCN(c5ccccn5)CC4)c(F)cc3c1=O)OCC2CF,-,14 µg/mL
CC(n1cnc2c(=O)[nH]c(N)nc21)C1(COCP(=O)(O)O)CC1,-,98 µM
Nc1ccn([C@H]2CO[C@@H](CO)S2)c(=O)n1,-,>500 µM
Nc1nc(NC2CC2)c2ncn(C3C=C[C@@H](CO)C3)c2n1,-,135 µM
CC(n1cnc2c(N)ncnc21)C1(COCP(=O)(O)O)CC1,-,98 µM
Cc1cn([C@H]2C=C[C@@H](CO)O2)c(=O)[nH]c1=O,-,143 µM
OB(O)c1ccccc1,MTT,>250 µM
Nc1ccn([C@H]2CC[C@@H](CO)O2)c(=O)n1,-,>0.05 µM
Nc1ncnc2c1ncn2CCOCP(=O)(O)O,-,50.3 µM
O=CN(CCC(=O)O)c1ccc(B(O)O)cc1,MTT,>250 µM
Cc1cn([C@H]2C=C[C@@H](CO)O2)c(=O)[nH]c1=O,-,>100 µM
Nc1ncnc2c1ncn2CCOCP(=O)(O)O,-,35.8 µM
Cc1cn([C@H]2C[C@H](N=[N+]=[N-])[C@@H](CO[Si](C)(C)C(C)(C)C)O2)c(=O)n(CC(=O)O)c1=O,-,139 µM
Nc1nc(=O)n([C@@H]2CO[C@H](CO)S2)cc1F,-,>500 µM
Cc1cn(C(C)C2(COCP(=O)(O)O)CC2)c(=O)[nH]c1=O,-,99 µM
CSc1c(C)c(SC)n2ccncc12,-,109 µM
CCNC(=O)c1cc(C)ccc1NC(=O)C12CC3CC(CC(C3)C1)C2,-,>200 µM
COc1cc(/C=C2/C(=O)N(C(=O)c3ccc(Cl)cc3)N=C2C)cc(OC)c1OC,-,>14 µM
NNC(=O)c1cc(Cl)ccc1NC(=O)C12CC3CC(CC(C3)C1)C2,-,15.1 µM
O=C(Nc1ccccc1C(=O)N[C@@H](Cc1ccccc1)C[C@H](O)[C@H](Cc1ccccc1)NC(=O)OC1CCOC1)OCc1ccccn1,-,>0.03 µM
Cc1cn([C@@H]2O[C@H](CO[Si](C)(C)C(C)(C)C)[C@@H](O)[C@H]2O[Si](C)(C)C(C)(C)C)c(=O)n(CC(=O)ON)c1=O,-,4.7 µM
O=c1[nH]cnc2c1ncn2[C@H]1CC[C@@H](CO)O1,-,945 µM
CC(C)(C)[Si](C)(C)OC[C@H]1O[C@@H](n2ccc(=O)n(CC(=O)O)c2=O)[C@H](O[Si](C)(C)C(C)(C)C)[C@@H]1O,-,78 µM
Nc1nc2c(ncn2[C@@H]2C[C@H](OCP(=O)(O)O)CC2(F)F)c(=O)[nH]1,-,>100 µM
O=C(NN1C(=O)C(Cl)C1c1cccc(O)c1)c1ccccc1O,-,>15 µM
CC(C)(C)[Si](C)(C)OC[C@@H]1CC[C@H](n2cnc3c(=O)n(CC(=O)OCc4ccccc4)cnc32)O1,-,32.5 µM
OB(O)c1ccc(/C=N\NC(=S)Nc2ccccc2)cc1,MTT,105 µM
Cc1cc(SC2=C(O)C[C@@](CCc3ccc(N)cc3)(C(C)C)OC2=O)c(C(C)(C)C)cc1CO,-,>92 µM
CCCCCCCCCCCCCCCOP(=O)(OCc1ccc(OC(=O)CCCC)cc1)OP(=O)(O)OP(=O)(O)OC[C@@H]1C=C[C@H](n2cc(C)c(=O)[nH]c2=O)O1,-,22 µM
Nc1ccn([C@@H]2O[C@H](CO)C[C@@H]2F)c(=O)n1,-,61.8 µg/mL
Cc1cn([C@@H]2O[C@H](CO[Si](C)(C)C(C)(C)C)[C@@H](O)[C@H]2O[Si](C)(C)C(C)(C)C)c(=O)n(CC(=O)O)c1=O,-,23 µM
CCc1c(Cc2cc(C)cc(C)c2)n(COC/C=C/c2ccc(OP(=O)(OCCSC(=O)C(C)(C)C)OC[C@@H]3C=C[C@H](n4cc(C)c(=O)[nH]c4=O)O3)cc2)c(=O)[nH]c1=O,-,32 µM
C[C@]1(/C=C/P(=O)(O)O)CO[C@@H](n2cnc3c(=O)[nH]c(N)nc32)C1,-,>100 µM
Nc1nc2c(ncn2[C@@H]2C=C[C@H](CO)O2)c(=O)[nH]1,-,>10 µM
O=C(Nc1ccccc1C(=O)N[C@@H](Cc1ccccc1)[C@H](O)[C@H](O)[C@H](Cc1ccccc1)NC(=O)c1ccno1)OCc1ccccn1,-,>0.8 µM
COc1ccc(C=O)cc1B(O)O,MTT,>250 µM
Cc1cn([C@H]2C[C@H](N=[N+]=[N-])[C@@H](CO)O2)c(=O)[nH]c1=O,-,500 µM
CC(n1ccc(=O)[nH]c1=O)C1(COCP(=O)(O)O)CC1,-,>100 µM
CC1=NN(C(=O)c2ccc(Cl)cc2)C(=O)/C1=C/c1ccccc1O,-,>21 µM
Nc1nc2c(ncn2[C@@H]2CC[C@H](CO)O2)c(=O)[nH]1,-,>100 µM
O=C(Nc1ccccc1C(=O)N[C@@H](Cc1ccccc1)C[C@H](O)[C@H](Cc1ccccc1)NC(=O)OCc1cncs1)OCc1ccccn1,-,>0.2 µM
Nc1nc2c(ncn2C2C=C[C@@H](CO)C2)c(=O)[nH]1,-,139 µM
COC(=O)[C@H](C)NP(=O)(OC[C@@H]1C=C[C@H](n2cnc3c(N)ncnc32)O1)Oc1ccccc1,-,3.75 µM
Cc1cn([C@@H]2O[C@H](CO)C[C@@H]2F)c(=O)[nH]c1=O,-,8 µg/mL
COC(=O)[C@H](C)NP(=O)(OC[C@H]1O[C@@H](n2cc(C)c(=O)[nH]c2=O)C[C@@H]1N=[N+]=[N-])Oc1ccccc1,-,>100 µM
CC1=NN(C(=O)c2ccccc2O)C(=O)/C1=C\c1ccco1,-,0.6 µM
Cc1cn([C@H]2C[C@H](N=[N+]=[N-])[C@@H](CO)O2)c(=O)[nH]c1=O,-,0.5 µM
Nc1nc(NC2CC2)c2ncn(C3CC=C[C@H]3CO)c2n1,-,>100 µM
Cc1cn([C@H]2C[C@H](Nc3n[nH]c(N)n3)[C@@H](CO)O2)c(=O)[nH]c1=O,MTT,>100 µg/mL
CC1=NN(C(=O)c2ccccc2O)C(=O)/C1=C/c1ccc(O)cc1,-,0.059 µM
Cc1cn([C@H]2C=C[C@@H](CO)O2)c(=O)[nH]c1=O,-,90 µM

7 of the rows above, restated:

compound | read by | value
CCNC(=O)c1cc(C)ccc1NC(=O)C12CC3CC(CC(C3)C1)C2 | - | >200 µM
O=CN(CCC(=O)O)c1ccc(B(O)O)cc1 | MTT | >250 µM
Cc1cn([C@H]2C[C@H](Nc3n[nH]c(N)n3)[C@@H](CO)O2)c(=O)[nH]c1=O | MTT | >100 µg/mL
Nc1ncnc2c1ncn2CCOCP(=O)(O)O | - | 35.8 µM
COc1cc(/C=C2/C(=O)N(C(=O)c3ccc(Cl)cc3)N=C2C)cc(OC)c1OC | - | >14 µM
CCCCCCCCCCCCCCCOP(=O)(OCc1ccc(OC(=O)CCCC)cc1)OP(=O)(O)OP(=O)(O)OC[C@@H]1C=C[C@H](n2cc(C)c(=O)[nH]c2=O)O1 | - | 22 µM
Nc1nc(=O)n([C@@H]2CO[C@H](CO)S2)cc1F | - | >500 µM

Lines come from different laboratories, so protocols vary. CCn: concentration that lowers growth or viability of the cells by n%.